Laboratory results taken from patent publication US8227621B2, “Cyanine dyes and methods of use” (priority 2005, dated 2012).

Test: Intrinsic fluorescence of quencher dyes compared with NIR Reporter Dye A
Assay type: physicochemical
Conditions: acidic (pH 4.6) vs basic (pH 7.5) 50 mM TRIS-HCl buffer with 10% DMSO

| SMILES | pH dependence of intrinsic fluorescence |
| --- | --- |
| CN(C)c1ccc2c3c(cccc13)C(/C=C/C=C/C=C1/N(CCCCCC(=O)[O-])c3ccc4c(S(=O)(=O)[O-])cc(S(=O)(=O)[O-])cc4c3C1(C)C)=[N+]2C.[Na+].[Na+] [Compound 19A] | do not have pH dependent intrinsic fluorescence |
| CC1(C)C(/C=C/C2=C(Cl)C(=C/C=C3/N(CCCCCCC(=O)O)c4ccc5cc(S(=O)(=O)[O-])ccc5c4C3(C)C)/CCC2)=[N+](CCCS(=O)(=O)[O-])c2ccc(N(CCCS(=O)(=O)O)CCCS(=O)(=O)O)cc21.[Na+] [Compound 5] | slight increase |
| CC1(C)C(/C=C/C2=C(Cl)C(=C/C=C3/N(CCCCCC(=O)[O-])c4ccc5ccccc5c4C3(C)C)/CCC2)=[N+](CCCS(=O)(=O)[O-])c2ccc(N(CCCS(=O)(=O)O)CCCS(=O)(=O)O)cc21.[Na+] [Compound 9] | slight increase |
| CC1(C)C(/C=C/C2=C(Cl)C(=C/C=C3/N(CCCCCC(=O)[O-])c4ccc5c(S(=O)(=O)[O-])cc(S(=O)(=O)[O-])cc5c4C3(C)C)/CCC2)=[N+](CCCS(=O)(=O)[O-])c2ccc(N(CCCS(=O)(=O)O)CCCS(=O)(=O)O)cc21.[Na+].[Na+].[Na+] [Compound 12] | slight increase |
